# Measurements published in patent US20240336672A1.
# Target: SARS-CoV-2 delta plus variant RBD (SARS-CoV-2)
# Assay: ELISA
substance,measurement,value
ETE (antibody),OD405nm,0.4
